Test results published in PMC5514147, “Characterization of HIV-1 integrase interaction with human Ku70 protein and initial implications for drug targeting” (Scientific Reports, 2017).

Target: T1, recombinant HIV-1 integrase with N-terminal His6-tag (HIV-1)
T1 construct: Plasmid provided by J-F. Mouscadet; source: E. coli, purified by the His6 tag; not shown: His6, N-terminal, kept
Experiment: pull-down; GST-pull-down: GST-Ku70 proteins (or GST) held on glutathione-agarose, His6-IN proteins as prey; buffer A (20 mM Hepes pH 7.5, 100 mM NaCl, 7.5 mM MgCl2, 2 mM 2-mercaptoethanol, 50 ug/ml BSA, 0.1% NP40), room temperature, Western blot; Kd from increasing IN at 50 nM Ku70 mutant
Conditions: both partners purified

Binder | Kd [nM]
Ku70_1-318 deletion mutant with N-terminal GST-tag (domain or fragment, Ku70, human, residues 1-318 (STOP codon added at 319 in pGEX-6p-1-Ku70); not shown: GST, N-terminal, kept) MSGWESYYKTEGDEEAEEEQEENLEASGDYKYSGRDSLIFLVDASKAMFESQSEDELTPFDMSIQCIQSVYISKIISSDRDLLAVVFYGTEKDKNSVNFKNIYVLQELDNPGAKRILELDQFKGQQGQKRFQDMMGHGSDYSLSEVLWVCANLFSDVQFKMSHKRIMLFTNEDNPHGNDSAKASRARTKAGDLRDTGIFLDLMHLKKPGGFDISLFYRDIISIAEDEDLRVHFEESSKLEDLLRKVRAKETRKRALSRLKLKLNKDIVISVGIYNLVQKALKPPPIKLYRETNEPVKTKTRTFNTSTGGLLLPSDTKR | 90 ± 25
Ku70_1-250 mutant (N-terminal alpha/beta-domain of Ku70) with N-terminal GST-tag (domain or fragment, Ku70, human, residues 1-250 (N-terminal alpha/beta domain); also called Ku_1-250; Ku70 N-terminal domain; not shown: GST, N-terminal, kept) MSGWESYYKTEGDEEAEEEQEENLEASGDYKYSGRDSLIFLVDASKAMFESQSEDELTPFDMSIQCIQSVYISKIISSDRDLLAVVFYGTEKDKNSVNFKNIYVLQELDNPGAKRILELDQFKGQQGQKRFQDMMGHGSDYSLSEVLWVCANLFSDVQFKMSHKRIMLFTNEDNPHGNDSAKASRARTKAGDLRDTGIFLDLMHLKKPGGFDISLFYRDIISIAEDEDLRVHFEESSKLEDLLRKVRAKE | 100 ± 30
